This is an account of results in patent publication US20220213176A1 (SHANGHAITECH UNIVERSITY, published 2022).

The chains are these.
B1: S-B8 (antibody, V domains shown)
VH: QVQLVQSGGGLIQPGGSLRLSCAASGFTVSLSHMNWVRQAPGKGLEWVSITYGDGNSDYADSVKGRFTISRDNSKNTLYLQMNSLRAEDTAVYYCAREYYYGMDVWGQGTTVTVSS
VL: DIVMTQSPDSLAVSLGERATINCKSSQSVLYSSNNKNYLAWYQQKPGQPPKLLIYWASTRESGVPDRFSGSGSGTDFTLTISSLQAEDVAVYYCQQYYSLPLTFGGGTKLEIKR
notes: also called S-B8 dimer
B2: S-D4 (antibody, V domains shown)
VH: QVQLQESGGGVVQPGRSLRLSCEVSGFTFSDYGMHWVRQAPGKGLEWVAVIWSEGSTEYYADSVKGRFTISRDNSKDTLYLQMNSLRAEDTAVYYCARPGYPTSTDRSPAAAGARQYYYYGMDVWGQGTTVTVSS
VL: NFMLTQPHSVSESPGKTVTISCTRSGGSGAANYVQWYQQRPGSSPTTLIYEDSRRPPGVPDRFSGSVDTSSNSASLTISGLQTEDEADYYCQSYDSSNHVVFGGGTKLTVLG
notes: also called S-D4 dimer; S-D4 IgG4
B3: S-E6 (antibody, V domains shown)
VH: QVTLRESGPGLVKPSETLSLTCAVSGGSLSSVNYYWSWIRQHPGKGLEWIGYIYYSGSTNYNPSLKSRVTMSLDTSKNQFSLKLSSVTAADTAVYYCATPGAIMGALHIWGQGTLVTVSS
VL: QAVLTQPSSASSTPGQRVIISCSGSSSNIGSNTVSWYQQVPGAAPKLLIYFDYRRPSGVPDRFSGTRSGTSASLGISGLQSEDEADYYCAAWDDSLSAWVFGRGTKLTVLG
notes: also called S-E6 dimer; dimer S-E6

The target in one test is T1, SARS-CoV spike (SARS-CoV, UniProt P59594 14-1255).
T1 construct: whole, on cells
Put plainly: FACS, transfected HEK293T cells, IgG4 antibody. On the technique in general: A flow cytometer gives signals particle by particle.
On to B1, for which the binding result is given as “no binding”.

As to B2, the binding result is “no binding”.

For B3, the binding result is on record as “no binding”.

In the next test the target is T2, MERS-CoV spike (MERS-CoV, UniProt K9N5Q8 18-1353).
T2 construct: whole, on cells
Briefly: FACS, transfected HEK293T cells, IgG4 antibody.
For B1, the binding result is given as “no binding”.

For B2, the binding result is “no binding”.

For the molecule B3, the binding result is reported as “no binding”.
